Pooled drug test results. Numbers come from NIAID ChemDB, via PubChem.

All rows: tests in culture; agent: HIV-1

ECn: concentration that inhibits the pathogen or its effect by n%. An empty or dashed field is not shown. Conditions beyond the fields shown may differ between rows.

SMILES | changes | strain or isolate | measure | cell line | read by | result
CC(=O)OCc1cn(Cc2ccncc2)c(Sc2ccccc2)c1C(C)C | - | IIIB | EC50 | MT-4 | cytopathic effect / MTT | 0.5 µM
CC(C)Nc1cccnc1N1CCN(C(=O)c2cc3cc(NS(C)(=O)=O)ccc3[nH]2)CC1 | RT-L100I | IIIB | EC50 | CEM | syncytia | 1.33 ± 0.58 µM
N#Cc1ccc(Nc2nc(Cc3c(Cl)cccc3Cl)nc(NOCC(=O)N3CCOCC3)n2)cc1 | - | - | EC50 | MT-4 | cytopathic effect / MTT | 0.01585 µM
O=C(O)CCCCCCCCCCCBr | - | IIIB | EC50 | CEM + CEM-SS | cytopathic effect / XTT | 38 ± 10.7 µM
CCCc1cc(=O)oc2c3c(c4c(c12)OC(C)(C)C=C4)O[C@@H](C)[C@H](C)[C@@H]3O | - | RF | EC50 | CEM + CEM-SS | cytopathic effect / XTT | 0.2 µM
OCc1cn(Cc2ccncc2)c(Sc2cc(Cl)cc(Cl)c2)c1C1CC1 | - | IIIB | EC50 | MT-4 | cytopathic effect / MTT | 0.2 µM
Cc1ccnc2c1NC(=O)c1cccnc1N2C1CC1 | - | IIIB | EC50 | MT-4 | RT activity | 0.083 µg/mL
CC(C)=CCOc1cc(NC(=S)c2ccsc2C)ccc1Cl | RT-L100I | IIIB | EC50 | CEM | syncytia | 0.5 ± 0.14 µM
Cc1ccnc2c1NC(=O)c1cccnc1N2C1CC1 | RT-K103R V179D P225H | - | EC50 | MT-4 | cytopathic effect / MTT | >30 µM
[N-]=[N+]=N[C@H]1[C@@H](O)[C@H](n2cnc3c(=O)[nH]c(N)nc32)O[C@@H]1CO | - | - | EC90 | PBMC | - | >100 µM
CC(C)OP(=O)(COCC1(Cn2ccc(=O)[nH]c2=O)CC=CC1)OC(C)C | - | - | EC50 | MT-4 | - | 60 µg/mL
Nc1nc(=O)n([C@@H]2CO[C@H](CO)S2)cc1F | - | HXB2D | EC50 | MT-2 | RT activity | 6.6 µM
CC(C)=CCOc1cc(Nc2nccc(CO)n2)ccc1Cl | - | IIIB | EC50 | MT-2 | cytopathic effect / MTT | >0.22 µM
CCOC(=O)c1cn(Cc2ccncc2)c(Sc2cc(Cl)cc(Cl)c2)c1C1CCCCC1 | - | IIIB | EC50 | MT-4 | cytopathic effect / MTT | 0.64 µM
COC1(OC)CCCCC2c3cccc(OC(C)=O)c3C21OC(C)=O | - | IIIB | EC50 | CEM | cytopathic effect / XTT | 7.9 µM
CC(C)=CCN1Cc2cc(Cl)cc3[nH]c(=S)n(c23)C[C@@H]1C | RT-K103N | IIIB | EC50 | CEM | cytopathic effect | ≥5 µg/mL
Nc1nc(N)c2ncn([C@H]3C=C[C@@H](OCP(=O)(O)O)O3)c2n1 | - | IIIB | EC50 | MT-4 | RT activity | ≥68.3 µg/mL
CC(C)OP(=O)(COCC1(Cn2ccc(N)nc2=O)CC=CC1)OC(C)C | - | - | EC50 | MT-4 | - | 20.5 µg/mL
[N-]=[N+]=N[C@H]1[C@@H](O)[C@H](n2cnc3c(N)ncnc32)O[C@@H]1CO | - | - | EC50 | PBMC | - | 13.9 µM
C1CNCCNCCCN[C@@H]([C@H]2CNCCCNCCNCCCN2)CNC1 | - | IIIB | EC50 | MT-4 | cytopathic effect / MTT | 0.12 µg/mL
CCOC(=O)c1cn(Cc2ccncc2)c(Sc2cc(Cl)cc(Cl)c2)c1C1CC1 | - | IIIB | EC50 | MT-4 | cytopathic effect / MTT | 1.5 µM
CNc1nc(NC)c2ncn([C@H]3C=C[C@@H](OCP(=O)(O)O)O3)c2n1 | - | IIIB | EC50 | MT-4 | RT activity | >125 µg/mL
Cc1cn([C@@H]2O[C@H](CO[Si](C)(C)C(C)(C)C)C3(OS(=O)(=O)C=C3N)[C@H]2O[Si](C)(C)C(C)(C)C)c(=O)n(C)c1=O | - | BaL | EC50 | MM + M/M | p24 | 0.08 µg/mL
CC(C)c1c(C(O)c2ccccc2)cn(Cc2ccncc2)c1Sc1cc(Cl)cc(Cl)c1 | - | IIIB | EC50 | MT-4 | cytopathic effect / MTT | 1.2 µM
C1CNCCNCC(C2CNCCNCCCNCCNC2)CNCCNC1 | - | IIIB | EC50 | MT-4 | cytopathic effect / MTT | 0.33 µg/mL
OCc1cn(Cc2ccncc2)c(Sc2cc(Cl)cc(Cl)c2)c1C1CCC1 | - | IIIB | EC50 | MT-4 | cytopathic effect / MTT | 0.08 µM
COc1nc(N)c2ncn([C@H]3C=C[C@@H](OCP(=O)(O)O)O3)c2n1 | - | IIIB | EC50 | MT-4 | RT activity | >125 µg/mL
CC1=C(C(=O)Nc2ccc(Cl)c(C(=O)OC(C)C)c2)SCCO1 | - | IIIB | EC50 | CEM | cytopathic effect / XTT | 0.0075 µM
CONC(=O)c1cn(Cc2ccncc2)c(Sc2ccccc2)c1C(C)C | - | IIIB | EC50 | MT-4 | cytopathic effect / MTT | 1.9 µM
O=S(=O)(c1ccccc1)c1ccccc1 | - | IIIB | EC50 | CEM | cytopathic effect / XTT | 2.3 µM
Nc1ccn([C@@H]2CS[C@H](CO)O2)c(=O)n1 | - | IIIB | EC50 | MT-4 | RT activity | 0.51 µg/mL
CC(C)=CCN1Cc2cc(Cl)cc3[nH]c(=S)n(c23)C[C@@H]1C | RT-M41L T215Y | - | EC50 | MT-4 | - | <0.4 µM
CCOC(=O)NN(C(=O)OCC)C(=C(C1CCCCC1)N1CCOCC1)N(NC(=O)OCC)C(=O)OCC | - | IIIB | EC50 | CEM | cytopathic effect / XTT | 1.7 µM
[N-]=[N+]=N[C@H]1[C@@H](O)[C@H](n2ccc(N)nc2=O)O[C@@H]1CO | - | - | EC50 | PBMC | - | 91 µM
CC(C)(C)OC(=O)N[C@@H](Cc1ccccc1)[C@@H](O)C[C@@H](Cc1ccc(OCCN2CCOCC2)cc1)C(=O)N[C@H]1c2ccccc2C[C@H]1O | - | IIIB | EC50 | MT-4 | antigen | <0.025 µM
CN1C[C@H](O)C(C)(C)Cn2c(c3c(c(O)c2=O)C(=O)N(Cc2ccc(F)c(Cl)c2)CC3)C1=O | - | - | EC95 | MT-4 | p24 | 0.015 µM
Cc1cn([C@H]2C[C@H](N=[N+]=[N-])[C@@H](CO)O2)c(=O)[nH]c1=O | - | IIIB | EC50 | MT-4 | p24 | <0.04 µM
CC(C)=CCOc1cc(Nc2ncnc(Cl)n2)ccc1Cl | - | IIIB | EC50 | MT-2 | cytopathic effect / MTT | >45 µM

A second listing of 5 rows from above:

{"SMILES": "CC(C)=CCOc1cc(Nc2ncnc(Cl)n2)ccc1Cl", "strain or isolate": "IIIB", "measure": "EC50", "cell line": "MT-2", "read by": "cytopathic effect / MTT", "result": ">45 µM"}
{"SMILES": "O=C(O)CCCCCCCCCCCBr", "strain or isolate": "IIIB", "measure": "EC50", "cell line": "CEM + CEM-SS", "read by": "cytopathic effect / XTT", "result": "38 ± 10.7 µM"}
{"SMILES": "CCOC(=O)c1cn(Cc2ccncc2)c(Sc2cc(Cl)cc(Cl)c2)c1C1CCCCC1", "strain or isolate": "IIIB", "measure": "EC50", "cell line": "MT-4", "read by": "cytopathic effect / MTT", "result": "0.64 µM"}
{"SMILES": "Cc1ccnc2c1NC(=O)c1cccnc1N2C1CC1", "strain or isolate": "IIIB", "measure": "EC50", "cell line": "MT-4", "read by": "RT activity", "result": "0.083 µg/mL"}
{"SMILES": "Cc1ccnc2c1NC(=O)c1cccnc1N2C1CC1", "changes": "RT-K103R V179D P225H", "measure": "EC50", "cell line": "MT-4", "read by": "cytopathic effect / MTT", "result": ">30 µM"}